The record followed here is article PMC6271157.

By UniProt entry, the sequences of proteins in these tests, tags left out. Residues count along the entry.
UniProt O42275, 24-633: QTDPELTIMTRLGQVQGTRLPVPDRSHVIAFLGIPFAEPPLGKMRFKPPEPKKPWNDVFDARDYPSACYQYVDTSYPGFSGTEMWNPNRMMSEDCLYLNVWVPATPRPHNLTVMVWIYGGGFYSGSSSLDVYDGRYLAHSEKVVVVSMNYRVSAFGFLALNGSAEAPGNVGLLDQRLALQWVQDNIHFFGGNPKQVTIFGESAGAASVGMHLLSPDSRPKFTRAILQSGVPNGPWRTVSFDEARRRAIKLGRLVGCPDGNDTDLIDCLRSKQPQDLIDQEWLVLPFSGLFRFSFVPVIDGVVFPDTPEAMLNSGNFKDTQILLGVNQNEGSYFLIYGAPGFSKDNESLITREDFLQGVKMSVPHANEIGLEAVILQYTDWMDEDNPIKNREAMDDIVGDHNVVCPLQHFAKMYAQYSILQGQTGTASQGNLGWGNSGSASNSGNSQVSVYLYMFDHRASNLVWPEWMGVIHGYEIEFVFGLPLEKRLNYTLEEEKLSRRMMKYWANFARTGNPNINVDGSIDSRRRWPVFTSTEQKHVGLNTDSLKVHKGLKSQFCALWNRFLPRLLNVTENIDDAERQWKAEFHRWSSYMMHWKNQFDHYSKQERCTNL

For some assays here: Construct, isoform or probe ends are uncertain for at least one entry.

Data set [1] addresses acetylcholinesterase (AChE) (electric eel) (UniProt O42275). In words: capture on aptamer-coated streptavidin plate, Ellman activity read-out. The conditions noted are these: background (streptavidin/BSA surface) subtracted; 3'-biotin; 8 mM Na2HPO4, 2 mM NaH2PO4, 2.7 mM KCl, 137 mM NaCl, 4 mM MgCl2, pH 7.4, room temperature, 2 h; wells coated with 10 nM AChE, blocked with 1% BSA; native protein; label: 3'-biotin, immobilized on streptavidin plate; single-stranded DNA. For orientation: Ellman's reagent forms a yellow product with free thiols.

The target is the same in data set [2]. In words: ELONA. The conditions noted are these: high ionic strength ~1.2 M, 1137 mM NaCl, 4 mM MgCl2; 5'-biotin (ELONA); 8 mM Na2HPO4, 2 mM NaH2PO4, 2.7 mM KCl, 137 mM NaCl, 4 mM MgCl2, pH 7.4, room temperature, 2 h; wells coated with 10 nM AChE, blocked with 1% BSA; native protein; label: 5'-biotin, detected by streptavidin-HRP; single-stranded DNA.

With “AAGCATCCGCTGGTTGACTGTAGCTCTGGCAGACGTAGTGTGAAGGTACCAGCTATTGGGATCTTGGACCCTGCGAA [R15/19 3'-biotin]”, the binding result in data set [1] is recorded as “binds”. Consider “AAGCATCCGCTGGTTGACTGTAGCTCTGGCAGACGTAGTGTGAAGGTACCAGCTATTGGGATCTTGGACCCTGCGAA [R15/19 (also R15/C19)]”, for which, in data set [2], the Kd (in general, the equilibrium constant for the complex coming apart) amounted to 422 nM. This counts as sub-micromolar.
